{"source": "EPA's ToxValDB 9.5", "tested_on": "Mus musculus", "settings": "acute; oral; mortality", "data": [{"smiles": "CC(C)[C@H]1OC(=O)[C@H](Cc2ccccc2)N(C)C(=O)[C@@H](C(C)C)OC(=O)[C@H](Cc2ccccc2)N(C)C(=O)[C@@H](C(C)C)OC(=O)[C@H](Cc2ccccc2)N(C)C1=O", "note": "[Beauvericin]", "values": [{"measurement": "LD50", "result": 100, "unit": "mg/kg"}]}]}
